Series [1] has as its system NC(=O)c1ccc[n+]([C@@H]2O[C@H](COP(=O)(O)OP(=O)(O)OC[C@H]3O[C@@H](n4cnc5c(N)ncnc54)[C@H](O)[C@@H]3O)[C@@H](O)[C@H]2O)c1. In words: purified protein. The settings on record: 1 mM DL-isocitrate, 2 mM MnCl2, 50 mM Tris-HCl pH 7.5, 25 °C, varied: cofactor.
The subject of series [2] is NC(=O)c1ccc[n+]([C@@H]2O[C@H](COP(=O)(O)OP(=O)(O)OC[C@H]3O[C@@H](n4cnc5c(N)ncnc54)[C@H](OP(=O)(O)O)[C@@H]3O)[C@@H](O)[C@H]2O)c1. In words: purified protein. Particulars: 1 mM DL-isocitrate, 2 mM MnCl2, 50 mM Tris-HCl pH 7.5, 25 °C, varied: cofactor.

By Km is commonly meant the concentration of substrate that gives half-maximal velocity. One may read the kcat as the maximal rate divided by the concentration of active sites. On to “PaIDH1 (Pseudomonas aeruginosa PAO1; K346D)”, for which, in series [1], the Km was 15,368.79 ± 2818 μM and the kcat amounted to 0.003 ± 0.0003 s⁻¹. Also, in series [2], the Km was determined as 1715.67 ± 133.5 µM and the kcat came out at 39.56 ± 2.43 s⁻¹.
On to “PaIDH1 (Pseudomonas aeruginosa PAO1; K346D/V353A/Y347I)”, for which, in series [1], the Km was determined as 4500 ± 157.36 µM and the kcat is 4.73 ± 0.76 s⁻¹.
Take “PaIDH1 (Pseudomonas aeruginosa PAO1; K346D/V353A/Y347I/Y393K)”: in series [1], the Km came to 925.1 ± 83.81 µM and the kcat is 7.04 ± 0.71 s⁻¹.
As for “PaIDH1 (Pseudomonas aeruginosa PAO1; Y393K)”, in series [2], the Km was 74.36 ± 5.28 µM and the kcat turned out to be 41.32 ± 1.95 s⁻¹.
Usually kcat/Km stands for the turnover number divided by the Michaelis constant. For “PaIDH2 (Pseudomonas aeruginosa PAO1; H589L)”, in series [1], the Michaelis constant (Km) was determined as 5927.3 ± 205.25 µM, the kcat amounted to 10.9 s⁻¹ and the specificity constant (kcat/Km) stood at 2000 M⁻¹ s⁻¹. Besides, in series [2], the Km worked out at 135.33 ± 14.4 µM, the kcat was found to be 52.4 s⁻¹ and the kcat/Km is 390000 M⁻¹ s⁻¹.
With “PaIDH2 (Pseudomonas aeruginosa PAO1; H589L/R600D)”, in series [2], the Km is 849.33 ± 71.92 µM, the kcat turned out to be 1.7 s⁻¹ and the kcat/Km is 2000 M⁻¹ s⁻¹.
For “PaIDH2 (Pseudomonas aeruginosa PAO1; H589L/R600I)”, in series [1], the Km was 5824.33 ± 346.01 µM, the kcat was determined as 20.7 s⁻¹ and the kcat/Km was 4000 M⁻¹ s⁻¹. Further, in series [2], the Km was 7770.67 ± 270.55 µM, the kcat is 16 s⁻¹ and the kcat/Km was 2000 M⁻¹ s⁻¹.
